# Results reported in ChEMBL document CHEMBL3085711, “Phosphorus-nitrogen compounds part 27. Syntheses, structural characterizations, antimicrobial and cytotoxic activities, and DNA interactions of new phosphazenes bearing secondary amino and pendant (4-fluorobenzyl)spiro groups” (2013).
# Calls of active or inactive are those of the source. No cut-off for these calls is given here.
# Experiments:
# Escherichia coli [1] = test: Binding affinity to Escherichia coli pBR322 A/AGCTT DNA assessed as DNA strand cleavage at 625 to 2500 uM preincubated for 24 hrs prior to HindIII treatment measured after 1 hr by agarose gel electrophoresis
# Escherichia coli [2] = test: Binding affinity to Escherichia coli pBR322 DNA assessed as DNA strand cleavage at 625 to 2500 uM after 24 hrs by agarose gel electrophoresis
# Escherichia coli [3] = test: Binding affinity to Escherichia coli pBR322 DNA assessed as DNA strand cleavage at 156 to 1250 uM after 24 hrs by agarose gel electrophoresis
# Escherichia coli [4] = test: Binding affinity to Escherichia coli pBR322 G/GATCC DNA assessed as DNA strand cleavage at 625 to 2500 uM preincubated for 24 hrs prior to BamHI treatment measured after 1 hr by agarose gel electrophoresis
SMILES,Activity (Escherichia coli [1]),Activity (Escherichia coli [2]),Activity (Escherichia coli [3]),Activity (Escherichia coli [4])
CN1CCCN(Cc2ccc(F)cc2)P12=NP(Cl)(Cl)=NP(Cl)(Cl)=N2 (configuration not stated),Active,Active,,
CCN1CCN(Cc2ccc(F)cc2)P12=NP(Cl)(Cl)=NP(Cl)(Cl)=N2 (configuration not stated),Active,,Active,
CN1CCN(Cc2ccc(F)cc2)P12=NP(Cl)(Cl)=NP(Cl)(Cl)=N2 (configuration not stated),inactive,Active,,inactive
